Results reported in patent US20260077055A1, “COMPOSITIONS OF POLYPLEXES AND SAPONINS” (SAPREME TECHNOLOGIES B.V., priority 2022, published 2026).

Tested on: EGFR+ A431 cells
Assay: Cell viability (MTS) after polyplex transfection of A431 cells
Assay type: cell-based
Settings: K16C npSaporin polyplex with targeted saponin
Protocol: Spectrophotometry: Concentrations were determined using either a Thermo Nanodrop 2000 spectrometer or Perkin Elmer Lambda 365 Spectrophotometer. DLS measurements: DLS measurements were performed on a Malvern Nano ZS (Malvern Instruments, U.K.), operating at 633 nm with a 173° scattering angle, at 25 or 37° C. DLS mean diameters were obtained from the intensity particle size distribution provided by Malvern Zetasizer Software. DLS histograms were obtained from the intensity particle size distributions. Zeta-potential: The zeta-potential values of the polyplexes were obtained by laser doppler anemometry (LDA), measuring the mean electrophoretic mobility (Malvern Zetasizer Nano ZS, Malvern Instruments, U.K.). Measurements were performed in 10 mM HEPES pH 7.1, 150 mM NaCl. TEM measurements: TEM measurements were performed on a JEOL JEM-1011 operated at 100 kV electron microscope, equipped with a camera S5 MegaView G2. […] Infrared Spectroscopy: FT-IR spectra were recorded on a Bruker Vertex 70v, equipped with a RockSolid interferometer, after preparing the samples (1-2 mg) as KBr pellets. […] NMR Spectroscopy: 1H NMR spectra were recorded on a 11.7 T Bruker DRX-500 spectrometer. […] Experiments were recorded acquiring 64-512 scans, with a pre-scan delay (d1) of 12 s, and an acquisition time (aq) of 4 s at 300 K. 13C NMR spectrum was recorder on a 9.39 T Varian Innova 400 spectrometer. […]

## Cetuximab-SO1861: Cetuximab conjugated via cysteines with SO1861-EMCH, 4 SO1861 moieties per antibody (DAR4)
  amount of saporin nanoplasmid necessary per treatment: greatly reduced
